The list shows a part of the results, in another mix than the full data. Inconclusive results are not listed. The source made the active and inactive calls. The call rests on the fitted dose curve; in most records, active means well fitted inhibition curve with a large enough effect; inconclusive means small, poorly fitted or top-dose-only effect; inactive means flat fitted curve, though single readings scatter.

Data on 1 compound can be found in PubChem BioAssay AID720535 (National Center for Advancing Translational Sciences (NCATS), 2013).
Potency means the concentration at half of the fitted maximal effect.

The nature of the test: qHTS for Inhibitors of TGF-b: Cytotox Counterscreen for Cherry Picks. Further: nearly all actives have a fitted effect of over 70% in size. The settings on record: HepG2 CAGA-GFP viability, ATP luminescence, 18 h; cells stimulated with TGF-beta, 500 pg/mL. From the text:
TGF-b is a main component in the TGF-b signaling pathway which plays diverse roles in cellular and development pathways. TGF-b is mediated by transcription factors called "Smads". Although the Smad-dependent pathway is the primary canonical TGF-b signaling mode, TGF-b1 can also activate alternative signaling pathways, including those involving MAPK (ERK, JNK and p38). This interaction may mediate or enhance Smad-dependent responses, or can exert Smad-independent effects. The complexity of this signaling cascade allows the TGF-b superfamily to perform unique, overlapping or redundant functions. […] We aim to identify Smad3-small molecule antagonists using a quantitative high throughput screening (qHTS) approach. […]
Suspensions of trypsinized HEPG2 CAGA-GFP cells were dispensed into white, tissue culture-treated, solid 1536-well plates at 5uL/well (1000 cells/well final concentration) in DMEM medium supplemented with 1% FBS. […] Two uL of CellTiter Glo (Promega), a luminescence-based viability reagent, was dispensed, followed by a 10 minute room temperature incubation. The plates were then measured on a PerkinElmer ViewLux plate reader for luminescence (clear filter) using a 5 second exposure. The %Activity was determined from the corrected luminescence values. […] Concentration-response curves were fitted to the signals arising from the resulting luminescence. […]
(In general: In qHTS, concentration-response curves come from the screen itself.)
For `CC(=O)OCC12CC(OC(=O)CC(C)C)C(C)=CC1OC1C(O)C(OC(C)=O)C2(C)C12CO2` (stereo unspecified), the Potency was active: 461 nM.
